Assay results as given in patent publication US20240269228A1 (priority 2021, published 2024).
pIC50: −log10 of the molar value. Some compounds may have been tested in ways that are not shown here.

Sequences of proteins named here, by UniProt entry; tags and fusion partners are left off. Residues count along the entry.
UniProt P05177, whole entry: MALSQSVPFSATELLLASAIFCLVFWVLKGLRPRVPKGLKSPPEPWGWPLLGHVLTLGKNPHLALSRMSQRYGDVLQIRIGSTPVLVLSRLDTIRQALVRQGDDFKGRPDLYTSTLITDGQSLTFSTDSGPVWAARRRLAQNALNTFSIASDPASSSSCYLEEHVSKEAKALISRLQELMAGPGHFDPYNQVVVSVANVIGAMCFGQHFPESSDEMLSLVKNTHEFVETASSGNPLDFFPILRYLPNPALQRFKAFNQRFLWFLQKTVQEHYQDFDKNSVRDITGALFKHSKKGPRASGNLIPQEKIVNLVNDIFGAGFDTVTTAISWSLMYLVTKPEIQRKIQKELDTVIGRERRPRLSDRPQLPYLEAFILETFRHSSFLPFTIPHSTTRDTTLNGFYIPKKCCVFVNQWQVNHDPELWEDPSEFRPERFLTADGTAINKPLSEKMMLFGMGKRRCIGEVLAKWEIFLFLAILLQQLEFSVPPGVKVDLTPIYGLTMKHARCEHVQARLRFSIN
UniProt P11712, whole entry: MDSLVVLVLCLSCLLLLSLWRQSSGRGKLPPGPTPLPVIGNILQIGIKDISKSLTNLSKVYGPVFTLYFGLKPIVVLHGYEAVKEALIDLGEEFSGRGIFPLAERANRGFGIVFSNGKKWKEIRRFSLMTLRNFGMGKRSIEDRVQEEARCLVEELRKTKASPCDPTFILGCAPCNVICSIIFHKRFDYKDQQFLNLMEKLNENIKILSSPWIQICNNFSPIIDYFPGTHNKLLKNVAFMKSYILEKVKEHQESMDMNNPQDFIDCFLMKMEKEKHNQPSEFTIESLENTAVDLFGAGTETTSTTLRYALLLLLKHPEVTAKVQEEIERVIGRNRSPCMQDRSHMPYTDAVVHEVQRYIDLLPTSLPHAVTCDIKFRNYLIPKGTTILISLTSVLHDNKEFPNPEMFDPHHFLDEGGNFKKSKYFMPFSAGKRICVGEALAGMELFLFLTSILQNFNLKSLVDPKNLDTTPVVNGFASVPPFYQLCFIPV
UniProt P11509, whole entry: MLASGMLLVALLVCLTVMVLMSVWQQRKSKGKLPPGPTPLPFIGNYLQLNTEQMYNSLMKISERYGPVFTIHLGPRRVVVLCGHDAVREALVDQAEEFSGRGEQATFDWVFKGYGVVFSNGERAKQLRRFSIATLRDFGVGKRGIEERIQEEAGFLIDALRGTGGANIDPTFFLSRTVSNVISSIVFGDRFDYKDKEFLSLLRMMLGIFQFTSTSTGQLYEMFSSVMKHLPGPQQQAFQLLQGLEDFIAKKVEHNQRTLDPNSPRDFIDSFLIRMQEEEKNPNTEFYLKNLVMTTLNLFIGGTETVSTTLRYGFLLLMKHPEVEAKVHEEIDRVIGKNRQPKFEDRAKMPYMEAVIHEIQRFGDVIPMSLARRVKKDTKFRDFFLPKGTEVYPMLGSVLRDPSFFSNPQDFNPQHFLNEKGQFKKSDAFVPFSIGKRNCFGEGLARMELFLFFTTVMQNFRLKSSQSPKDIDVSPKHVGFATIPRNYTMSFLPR
UniProt P10635, whole entry: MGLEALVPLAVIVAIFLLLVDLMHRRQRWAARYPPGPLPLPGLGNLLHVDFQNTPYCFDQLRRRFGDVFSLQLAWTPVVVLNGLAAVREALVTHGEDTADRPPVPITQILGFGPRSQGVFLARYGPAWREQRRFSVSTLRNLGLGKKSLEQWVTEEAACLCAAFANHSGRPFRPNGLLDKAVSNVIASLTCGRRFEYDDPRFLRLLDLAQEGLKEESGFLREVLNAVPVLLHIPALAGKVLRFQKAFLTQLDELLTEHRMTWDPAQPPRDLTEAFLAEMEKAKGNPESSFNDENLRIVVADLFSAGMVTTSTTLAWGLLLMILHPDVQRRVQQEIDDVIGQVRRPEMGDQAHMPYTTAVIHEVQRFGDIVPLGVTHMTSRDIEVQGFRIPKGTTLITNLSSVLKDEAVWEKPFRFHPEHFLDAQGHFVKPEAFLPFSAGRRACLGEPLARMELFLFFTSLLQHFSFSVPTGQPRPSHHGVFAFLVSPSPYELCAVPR
UniProt Q05941, 23-502 limits assumed: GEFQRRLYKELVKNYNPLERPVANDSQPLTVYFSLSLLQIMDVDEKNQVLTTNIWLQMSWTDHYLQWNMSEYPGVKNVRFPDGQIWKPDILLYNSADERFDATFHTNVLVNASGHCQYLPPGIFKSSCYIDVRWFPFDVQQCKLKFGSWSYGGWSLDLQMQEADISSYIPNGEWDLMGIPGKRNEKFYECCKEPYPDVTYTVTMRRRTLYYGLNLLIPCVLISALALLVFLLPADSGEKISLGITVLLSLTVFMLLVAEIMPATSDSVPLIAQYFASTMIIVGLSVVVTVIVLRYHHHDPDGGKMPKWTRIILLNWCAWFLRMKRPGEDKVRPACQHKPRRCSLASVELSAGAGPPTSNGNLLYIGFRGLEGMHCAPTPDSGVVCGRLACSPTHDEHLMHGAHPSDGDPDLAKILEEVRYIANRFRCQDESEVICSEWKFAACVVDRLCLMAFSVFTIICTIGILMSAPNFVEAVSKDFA
UniProt Q9GZZ6, 25-450 limits assumed: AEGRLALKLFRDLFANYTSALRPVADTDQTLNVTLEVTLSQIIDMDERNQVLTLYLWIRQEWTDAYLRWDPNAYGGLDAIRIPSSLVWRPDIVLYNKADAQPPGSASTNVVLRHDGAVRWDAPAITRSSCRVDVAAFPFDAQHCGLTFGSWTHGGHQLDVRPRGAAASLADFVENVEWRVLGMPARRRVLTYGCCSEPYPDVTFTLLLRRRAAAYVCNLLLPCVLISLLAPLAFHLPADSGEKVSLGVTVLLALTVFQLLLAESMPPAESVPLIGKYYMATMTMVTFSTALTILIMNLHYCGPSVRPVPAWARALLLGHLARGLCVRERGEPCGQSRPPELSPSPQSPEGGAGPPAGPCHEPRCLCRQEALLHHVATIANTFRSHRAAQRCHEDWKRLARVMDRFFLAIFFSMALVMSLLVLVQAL
UniProt Q9UGM1, 26-479 limits assumed: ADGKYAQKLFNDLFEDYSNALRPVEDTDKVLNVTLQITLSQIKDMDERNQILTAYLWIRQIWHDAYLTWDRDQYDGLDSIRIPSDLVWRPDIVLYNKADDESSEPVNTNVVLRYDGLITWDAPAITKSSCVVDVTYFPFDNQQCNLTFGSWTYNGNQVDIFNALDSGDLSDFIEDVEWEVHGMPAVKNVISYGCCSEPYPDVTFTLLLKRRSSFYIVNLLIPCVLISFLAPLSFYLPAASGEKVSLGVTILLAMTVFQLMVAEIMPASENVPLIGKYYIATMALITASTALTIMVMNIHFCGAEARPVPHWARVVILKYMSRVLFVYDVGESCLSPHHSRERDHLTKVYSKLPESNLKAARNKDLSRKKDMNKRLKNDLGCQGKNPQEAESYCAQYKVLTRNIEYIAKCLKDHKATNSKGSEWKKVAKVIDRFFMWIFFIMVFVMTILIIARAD
UniProt P36544, 23-502 limits assumed: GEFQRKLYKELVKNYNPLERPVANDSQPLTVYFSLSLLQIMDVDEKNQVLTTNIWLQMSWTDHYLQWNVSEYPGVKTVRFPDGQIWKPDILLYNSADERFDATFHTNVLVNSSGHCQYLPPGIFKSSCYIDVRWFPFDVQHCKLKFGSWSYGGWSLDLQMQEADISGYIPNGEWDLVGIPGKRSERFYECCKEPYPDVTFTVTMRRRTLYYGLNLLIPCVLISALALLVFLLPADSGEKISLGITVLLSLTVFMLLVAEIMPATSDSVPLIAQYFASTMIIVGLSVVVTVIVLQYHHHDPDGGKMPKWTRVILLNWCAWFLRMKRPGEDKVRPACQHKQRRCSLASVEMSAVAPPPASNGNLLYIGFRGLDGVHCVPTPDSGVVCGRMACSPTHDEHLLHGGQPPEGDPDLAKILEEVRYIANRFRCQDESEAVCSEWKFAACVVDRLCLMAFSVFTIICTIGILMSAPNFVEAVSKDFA
UniProt Q9Y271, whole entry: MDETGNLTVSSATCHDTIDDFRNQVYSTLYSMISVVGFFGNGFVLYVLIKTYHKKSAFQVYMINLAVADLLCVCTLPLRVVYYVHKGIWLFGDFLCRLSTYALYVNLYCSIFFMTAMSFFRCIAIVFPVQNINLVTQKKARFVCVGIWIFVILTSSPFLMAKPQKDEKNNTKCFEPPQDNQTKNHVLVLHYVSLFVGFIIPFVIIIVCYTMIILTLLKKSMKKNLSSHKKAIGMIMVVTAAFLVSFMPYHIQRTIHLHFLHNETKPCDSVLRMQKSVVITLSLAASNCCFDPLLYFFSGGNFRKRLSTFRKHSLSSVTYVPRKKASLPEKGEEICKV
UniProt P30542, whole entry: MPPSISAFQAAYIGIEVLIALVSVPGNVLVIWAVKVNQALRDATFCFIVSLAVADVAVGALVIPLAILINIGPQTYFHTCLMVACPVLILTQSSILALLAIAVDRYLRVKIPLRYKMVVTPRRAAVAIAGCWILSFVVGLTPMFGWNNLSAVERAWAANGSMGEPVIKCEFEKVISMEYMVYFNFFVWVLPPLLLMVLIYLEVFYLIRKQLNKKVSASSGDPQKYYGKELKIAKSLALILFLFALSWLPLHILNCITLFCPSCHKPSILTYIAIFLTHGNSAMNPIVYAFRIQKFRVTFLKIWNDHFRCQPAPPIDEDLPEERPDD
UniProt P41594, 21-1212 limits assumed: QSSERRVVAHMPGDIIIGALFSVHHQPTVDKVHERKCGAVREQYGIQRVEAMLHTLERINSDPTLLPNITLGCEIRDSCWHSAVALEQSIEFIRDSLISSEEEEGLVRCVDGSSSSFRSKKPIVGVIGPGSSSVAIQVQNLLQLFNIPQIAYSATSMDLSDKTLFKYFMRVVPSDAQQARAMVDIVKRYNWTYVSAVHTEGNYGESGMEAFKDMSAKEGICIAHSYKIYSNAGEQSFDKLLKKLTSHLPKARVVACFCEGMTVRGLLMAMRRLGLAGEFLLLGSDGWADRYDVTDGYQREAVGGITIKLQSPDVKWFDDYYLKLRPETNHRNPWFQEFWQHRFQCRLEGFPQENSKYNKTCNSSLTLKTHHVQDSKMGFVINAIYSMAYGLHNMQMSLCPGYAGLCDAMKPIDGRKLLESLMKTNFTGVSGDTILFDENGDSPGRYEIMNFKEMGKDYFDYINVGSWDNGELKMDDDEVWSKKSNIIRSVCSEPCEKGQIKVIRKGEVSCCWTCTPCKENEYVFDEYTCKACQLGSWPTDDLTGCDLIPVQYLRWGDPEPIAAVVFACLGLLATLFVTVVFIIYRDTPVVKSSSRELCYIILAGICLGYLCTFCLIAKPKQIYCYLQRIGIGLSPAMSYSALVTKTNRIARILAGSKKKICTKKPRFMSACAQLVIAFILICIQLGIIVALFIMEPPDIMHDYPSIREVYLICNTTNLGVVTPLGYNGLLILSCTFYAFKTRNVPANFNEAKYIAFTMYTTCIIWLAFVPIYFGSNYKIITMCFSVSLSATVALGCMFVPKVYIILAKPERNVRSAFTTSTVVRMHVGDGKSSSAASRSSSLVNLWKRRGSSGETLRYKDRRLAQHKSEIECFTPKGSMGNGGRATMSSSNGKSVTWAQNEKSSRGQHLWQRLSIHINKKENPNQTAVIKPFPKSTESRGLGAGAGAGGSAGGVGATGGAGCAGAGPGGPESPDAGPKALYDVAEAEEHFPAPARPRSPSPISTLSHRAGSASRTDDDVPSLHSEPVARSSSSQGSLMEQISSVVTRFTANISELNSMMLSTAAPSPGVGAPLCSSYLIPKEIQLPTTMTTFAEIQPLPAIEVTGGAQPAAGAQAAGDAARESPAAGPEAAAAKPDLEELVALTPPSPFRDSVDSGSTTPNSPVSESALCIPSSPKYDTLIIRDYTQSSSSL
UniProt P08588, whole entry: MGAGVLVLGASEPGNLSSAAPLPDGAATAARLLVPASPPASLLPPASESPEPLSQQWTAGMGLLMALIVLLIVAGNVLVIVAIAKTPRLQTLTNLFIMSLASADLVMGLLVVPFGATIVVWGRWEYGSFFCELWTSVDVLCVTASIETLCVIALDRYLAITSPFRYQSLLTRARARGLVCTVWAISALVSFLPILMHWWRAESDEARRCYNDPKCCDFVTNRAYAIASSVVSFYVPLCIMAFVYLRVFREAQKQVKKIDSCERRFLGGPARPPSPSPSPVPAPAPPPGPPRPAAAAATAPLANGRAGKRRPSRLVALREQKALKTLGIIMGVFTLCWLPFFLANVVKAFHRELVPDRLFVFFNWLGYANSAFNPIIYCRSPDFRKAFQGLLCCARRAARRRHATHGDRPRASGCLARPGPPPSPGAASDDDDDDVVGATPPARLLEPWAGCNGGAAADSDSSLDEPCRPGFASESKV
UniProt P0DMS8, whole entry: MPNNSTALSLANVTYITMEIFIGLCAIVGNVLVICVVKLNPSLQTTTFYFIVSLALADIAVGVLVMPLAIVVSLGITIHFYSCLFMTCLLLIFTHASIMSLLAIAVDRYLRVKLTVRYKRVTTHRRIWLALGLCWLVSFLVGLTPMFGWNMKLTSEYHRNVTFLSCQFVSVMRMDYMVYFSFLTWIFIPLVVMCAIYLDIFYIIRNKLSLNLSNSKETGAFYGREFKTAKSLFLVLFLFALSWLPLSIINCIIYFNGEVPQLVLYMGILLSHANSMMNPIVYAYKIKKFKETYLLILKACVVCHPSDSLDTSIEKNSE

Key:
CYP3A4 = CYP3A4 (Homo sapiens, UniProt P08684); assay: Cytochrome P450 inhibition assay; details: 10 μM; substrate 7-benzyloxy-4-trifluoromethylcoumarin (BFC); average of 2 runs
CYP1A2 = CYP1A2 (Homo sapiens, UniProt P05177); assay: Cytochrome P450 inhibition assay; details: 10 μM; substrate 3-cyano-7ethoxycoumarin (CEC); average of 2 runs
CYP2C9 = CYP2C9 (Homo sapiens, UniProt P11712); assay: Cytochrome P450 inhibition assay; details: 10 μM; substrate 7-methoxy-4-trifluoromethylcoumarin (MFC); average of 2 runs
CYP2A6 = CYP2A6 (Homo sapiens, UniProt P11509); assay: Cytochrome P450 inhibition assay; details: 10 μM; substrate Coumarin; average of 2 runs
CYP2C19 = CYP2C19 (Homo sapiens, UniProt P33261); assay: Cytochrome P450 inhibition assay; details: 10 μM; substrate 3-cyano-7ethoxycoumarin (CEC); average of 2 runs
CYP2D6 = CYP2D6 (Homo sapiens, UniProt P10635); assay: Cytochrome P450 inhibition assay; details: 10 μM; substrate 7-methoxy-4-trifluoromethylcoumarin (MFC); average of 2 runs
[1] = tested on: mice with oxaliplatin-induced peripheral neuropathy; assay: Oxaliplatin-induced peripheral neuropathy in mice, cold-plate test
[2] = target: human ether-a-go-go-related gene (hERG) (Homo sapiens, UniProt Q12809); assay: hERG channel assay (hERG-CHO, automated patch-clamp); details: tested up to 100 μM
rat α7 nAChR = rat α7 nAChR (Rattus norvegicus, UniProt Q05941); assay: Two-electrode voltage clamp, Xenopus oocytes expressing the receptor
human α9α10 nAChR = human α9α10 nAChR (Homo sapiens, UniProt Q9GZZ6+Q9UGM1); assay: as above
rat α9α10 nAChR = rat α9α10 nAChR (Rattus norvegicus, UniProt P43144+Q9JLB5); assay: as above; details: r α9α10
human α7 nAChR = human α7 nAChR (Homo sapiens, UniProt P36544); assay: as above
[3] = Serum-stability assay in 25% human serum (RP-HPLC); details: 37 C, 24 h, n=6, area under the HPLC peak
Sodium Channel (site 2) = assay: Radioligand binding assay (Eurofins Cerep); details: 10 μM; radioligand [^3H]batrachotoxin; rat
[4] = target: Leukotriene CysLT1 (LTD4) (Homo sapiens, UniProt Q9Y271); assay: Radioligand binding assay (Eurofins Cerep); details: 10 μM; radioligand [^3H LTD4
Glutamate kainite site = assay: Radioligand binding assay (Eurofins Cerep); details: 10 μM; radioligand [^3H] kainic acid; rat
Neurokinin NK2 = Neurokinin NK2 (Homo sapiens, UniProt P21452); assay: Radioligand binding assay (Eurofins Cerep); details: 10 μM; radioligand [^125I]NKA
Androgen Receptor = assay: Radioligand binding assay (Eurofins Cerep); details: 10 μM; radioligand [^3H]methyltrienolone
[5] = target: glycine (strychnine-insensitive) (Rattus norvegicus, UniProt P35439); assay: Radioligand binding assay (Eurofins Cerep); details: 10 μM, radioligand [^3H]MDL 105,519
Potassium channel SKCa = assay: Radioligand binding assay (Eurofins Cerep); details: 10 μM; radioligand [^125I]apamin; rat
[6] = tested on: Ca^2+ channel (L type, dihydropyridine site); assay: Radioligand binding assay (Eurofins Cerep); details: 10 μM; radioligand [^3H]nitrendipine; rat
Vasopressin V1b = Vasopressin V1b (Homo sapiens, UniProt P47901); assay: Radioligand binding assay (Eurofins Cerep); details: 10 μM; radioligand [^125I]AVP
Adenosine A1 = Adenosine A1 (Homo sapiens, UniProt P30542); assay: Radioligand binding assay (Eurofins Cerep); details: 10 μM; radioligand [^3H]DPCPX
[7] = target: Metabotropic Glutamate receptor 5 (Homo sapiens, UniProt P41594); assay: Radioligand binding assay (Eurofins Cerep); details: 10 μM; radioligand [^3H] Quisqualate
[8] = tested on: α1 adrenergic (non-selective); assay: Radioligand binding assay (Eurofins Cerep); details: 10 μM; radioligand [^3H]prazosin; rat
Adenosine A2B = Adenosine A2B (Homo sapiens, UniProt P29275); assay: Radioligand binding assay (Eurofins Cerep); details: 10 μM; radioligand [^3H]CPX
β1 adrenergic = β1 adrenergic (Homo sapiens, UniProt P08588); assay: Radioligand binding assay (Eurofins Cerep); details: 10 μM; radioligand [^3H](−)CGP12177
[9] = tested on: glycine (strychnine-sensitive); assay: Radioligand binding assay (Eurofins Cerep); details: 10 μM; radioligand [^3H] strychnine
Adenosine A3 = Adenosine A3 (Homo sapiens, UniProt P0DMS8); assay: Radioligand binding assay (Eurofins Cerep); details: 10 μM; radioligand [^125I]AB-MECA

Structure (SMILES): C[C@@H](O)[C@@H]1NC(=O)[C@H]2NC(=O)[C@@H](NC(=O)CN)CSSC[C@H](NC(=O)[C@H](CCCNC(=N)N)NC(=O)[C@@H]3CCCN3C(=O)[C@H](CC(=O)O)NC1=O)C(=O)N[C@@H](CCCNC(=N)N)C(=O)N[C@@H](Cc1ccc(O)c(I)c1)C(=O)N[C@@H](CCC(N)=O)C(=O)N[C@H](C(=O)N[C@H](CC(=O)N[C@@H](CCCNC(=N)N)C(=O)O)Cc1ccc(O)cc1)CSSC2(C)C
- Inhibition [%] (CYP3A4): −2.0%
- Inhibition [%] (CYP1A2): −3.8%
- Inhibition [%] (CYP2C9): 3.1%
- Inhibition [%] (CYP2A6): 0.3%
- Inhibition [%] (CYP2C19): −1.9%
- Inhibition [%] (CYP2D6): −1.6%
- tolerance ([1]; constant dose of RgIA-5474): Tolerance was not observed
- onset of the therapeutic effect ([1]; doses given over a period of three weeks): not apparent until after 15 doses
- persistence of the therapeutic effect after cessation of treatment ([1]; mice tested weekly after day 22): persisted for four-weeks after cessation of treatment
- pIC50 [2]: < 4.00
- potency for rat α7 (rat α7 nAChR): significant decrease in potency
- increased potency on the human α9α10 nAChR (human α9α10 nAChR; compared to the RgIA4 peptide): 30 ×
- Hill slope values (human α9α10 nAChR; h α9α10): 0.73 ± 0.08
- recovery after 5 min peptide washout (human α9α10 nAChR; saturating concentration 10 nM): 3%
- increased potency over the native RgIA on the human α9α10 nAChR (human α9α10 nAChR; vs native RgIA): 9000 ×
- Hill slope values (rat α9α10 nAChR): 2.7 ± 0.8
- Hill slope values (human α7 nAChR; h α7): 1.3 ± 0.1
- lower potency compared to the human α9α10 nAChR (human α7 nAChR; human α7 vs human α9α10 nAChR): 2000 ×
- globular form present [3]: 94%
- ribbon form present [3]: 6%
- Inhibition [%] (Sodium Channel (site 2)): 7.2%
- Inhibition [%] [4]: −3.2%
- Inhibition [%] (Glutamate kainite site): −19.9%
- Inhibition [%] (Neurokinin NK2): 41.6%
- Inhibition [%] (Androgen Receptor): 3.4%
- Inhibition [%] [5]: 14.9%
- Inhibition [%] (Potassium channel SKCa): 14.6%
- Inhibition [%] [6]: −10.1%
- Inhibition [%] (Vasopressin V1b): −6.4%
- Inhibition [%] (Adenosine A1): 0.2%
- Inhibition [%] [7]: 7.7%
- Inhibition [%] [8]: 8.7%
- Inhibition [%] (Adenosine A2B): 4%
- Inhibition [%] (β1 adrenergic): 19.5%
- Inhibition [%] [9]: 22.4%
- Inhibition [%] (Adenosine A3): 17%
